The experiment has as its target T1, untagged catalytically active CNOT7, purified (human, UniProt Q9UIV1 1-285).
T1 construct: also called untagged CNOT7; 6xHis-CNOT7 (tag kept, in the deadenylation assay)
The experiment is described as follows: BLI. The settings on record: both partners purified.

B1: 6xHis-SBP-tagged PieF (Lpg1972) (natural protein)
chain: MKRLIICNGNKLTVCTQAISSGGIVEKYTPIFSLTKESDNELTLELSGVARGYYIIPSELTSSQARAAHLITLLTRAEESQTTDMHKILNSFVSGKITSGSMFNFENDGSFKREPEEAYNLINKI
In turn, B1 registered a Kd of 70.4 nM.
